Anti-infective test results gathered from many reports (values: NIAID ChemDB through PubChem).

Common to all: tests on isolated targets; agent: Hepatitis C virus

Two numbers with a dash give a range or band. ICn: concentration for n% inhibition. Inhibition is in % at the dose shown (toxicity tests: loss of growth or viability). Blank or dashed fields: not listed here. Neighbouring rows are from separate reports.

compound,dose,protein,read-out,value
CC(C)(C)C(=O)OCOC(=O)c1nc(-c2sccc2NC(=O)c2ccccc2)[nH]c(=O)c1O,,HCV polymerase,IC50,<50 µM
C=CCN(C(=O)Cc1ccc(F)cc1F)c1cc(-c2ccccc2)sc1C(=O)O,,NS3 ATPase,IC50,5–20 µM
O=C(O)c1ccc2c(c1)nc(-c1ccc3nc(-c4ccccc4)cc(Oc4ccccc4)c3c1)n2C1CCCCC1,100 µM,NS5B polymerase,inhibition,101%
O=C(Nc1cc(Cl)cc(-c2nc(C(=O)O)c(O)c(=O)[nH]2)c1NS(=O)(=O)c1ccc2ccccc2c1)c1cccs1,,HCV polymerase,IC50,<100 µM
Cc1onc(-c2ccc(Cl)cc2)c1-c1ccc2cc(-c3nc4cc(C(=O)O)ccc4n3C3CCCCC3)ccc2n1,100 µM,NS5B polymerase,inhibition,100%
CCC(=O)N(Cc1cccc(Cl)c1)c1cc(-c2ccccc2)sc1C(=O)O,,NS3 ATPase,IC50,5–20 µM
O=C(O)c1cc2nc(-c3ccc(Oc4ccccc4)cc3)cc(-c3ccc(OCc4ccccc4)cc3)n2n1,,RNA-dependent RNA polymerase,IC50,>10 µM
O=C(O)c1nc(-c2ccc3ccccc3c2)[nH]c(=O)c1O,,HCV polymerase,IC50,<100 µM
Cc1ccc(S(=O)(=O)Nc2cc(-c3ccc(C(N)=O)cc3)sc2C(=O)O)c(C)c1,,NS3 ATPase,IC50,<5 µM
Cc1ccccc1CC(=O)Nc1cccc(S(=O)(=O)NC(=O)Nc2cscc2-c2nc(C(=O)O)c(O)c(=O)[nH]2)c1,,HCV polymerase,IC50,<25 µM
CC(c1ccccc1)N(C(=O)c1ccc(Cl)cc1Cl)c1cc(-c2ccc(-c3ccccc3)cc2)sc1C(=O)O,,NS3 ATPase,IC50,<5 µM
COc1ccccc1-c1cc(-c2ccccc2Cl)n2nc(C(=O)O)cc2n1,,RNA-dependent RNA polymerase,IC50,>10 µM
O=C(O)c1sc(-c2ccccc2)cc1NS(=O)(=O)c1ccc(Cl)c(Cl)c1Cl,,NS3 ATPase,IC50,<5 µM
O=C(O)c1nc(-c2cccc(Cl)c2)[nH]c(=O)c1O,,HCV polymerase,IC50,<100 µM
O=C(O)c1ccc2c(c1)nc(-c1ccc3nc(-c4ccccc4[N+](=O)[O-])ccc3c1)n2C1CCCCC1,100 µM,NS5B polymerase,inhibition,101%
CC(=O)N1CCC(N(C(=O)c2ccc(Cl)cc2Cl)c2cc(-c3ccccc3)sc2C(=O)O)CC1,,NS3 ATPase,IC50,<5 µM
O=C(O)c1cc2nc(-c3ccccc3Cl)cc(-c3ccc(Cl)cc3)n2n1,,RNA-dependent RNA polymerase,IC50,>10 µM
O=C(O)c1nc(-c2ccccc2NS(=O)(=O)NCc2ccccc2Cl)[nH]c(=O)c1O,,HCV polymerase,IC50,<100 µM
O=C(O)c1cc2nc(-c3ccc(Cl)cc3)cc(N3CCCCC3)n2n1,,RNA-dependent RNA polymerase,IC50,>10 µM
N#Cc1ccccc1-c1ccc(CN(C(=O)c2ccc(Cl)cc2Cl)c2cc(-c3ccccc3)sc2C(=O)O)s1,,NS3 ATPase,IC50,<5 µM
NC(=O)c1cc(-c2ccc3cc(-c4nc5cc(C(=O)O)ccc5n4C4CCCCC4)ccc3n2)ccc1O,33 µM,NS5B polymerase,inhibition,97.62%
O=C(O)c1cc2nc(-c3cccc(Oc4ccccc4)c3)cc(Nc3cccc(OCc4ccccc4)c3)n2n1,,RNA-dependent RNA polymerase,IC50,1–10 µM
CN(C(=O)c1ccc2cc(-c3nc4cc(C(=O)O)ccc4n3C3CCCCC3)ccc2n1)c1ccc(Cl)cc1,33 µM,NS5B polymerase,inhibition,95.35%
COc1ccc(CNC(=O)Nc2cscc2-c2nc(C(=O)O)c(O)c(=O)[nH]2)c(OC)c1,,HCV polymerase,IC50,<25 µM
CC(=O)Nc1ccc(-c2ccc3cc(-c4nc5cc(C(=O)O)ccc5n4C4CCCCC4)ccc3n2)cc1,33 µM,NS5B polymerase,inhibition,90.61%
Cc1ccc(S(=O)(=O)Nc2cc(-c3ccccc3)sc2C(=O)NCC(=O)O)cc1,,NS3 ATPase,IC50,5–20 µM
O=C(NCc1cncs1)Nc1cscc1-c1nc(C(=O)O)c(O)c(=O)[nH]1,,HCV polymerase,IC50,<25 µM

Again, the opening 4 rows:

compound | dose | protein | read-out | value
CC(C)(C)C(=O)OCOC(=O)c1nc(-c2sccc2NC(=O)c2ccccc2)[nH]c(=O)c1O |  | HCV polymerase | IC50 | <50 µM
C=CCN(C(=O)Cc1ccc(F)cc1F)c1cc(-c2ccccc2)sc1C(=O)O |  | NS3 ATPase | IC50 | 5–20 µM
O=C(O)c1ccc2c(c1)nc(-c1ccc3nc(-c4ccccc4)cc(Oc4ccccc4)c3c1)n2C1CCCCC1 | 100 µM | NS5B polymerase | inhibition | 101%
O=C(Nc1cc(Cl)cc(-c2nc(C(=O)O)c(O)c(=O)[nH]2)c1NS(=O)(=O)c1ccc2ccccc2c1)c1cccs1 |  | HCV polymerase | IC50 | <100 µM